Experimental data from article PMC6151560, “Antibacterial and Antitubercular Activities of Cinnamylideneacetophenones” (Molecules : A Journal of Synthetic Chemistry and Natural …, 2017).

Experiments:
[1] = tested on: A549 (human lung adenocarcinoma epithelial cell line, ATCC CCL-185); test: Cytotoxicity on lung cells (resazurin), A549; assay type: cell-based
[2] = tested on: MRC-5 (human lung fibroblast cell line, ATCC CCL-171); test: Cytotoxicity on lung cells (resazurin), MRC-5; conditions: for SI Mt (MRC-5): SI = IC50 MRC-5 / MIC M. tuberculosis; for SI Sa (MRC-5): SI = IC50 MRC-5 / MIC S. aureus

Row | SMILES | SI Mt (A549) ([1]; SI = IC50 A549 / MIC M. tuberculosis) | SI Sa (A549) ([1]; SI = IC50 A549 / MIC S. aureus) | SI Mt (MRC-5) [2] | SI Sa (MRC-5) [2]
1 | O=C(/C=C/C=C/c1ccccc1)c1ccc(O)cc1 [Compound 4, (2E,4E)-1-(4-hydroxyphenyl)-5-phenylpenta-2,4-dien-1-one] | 0.9 | 1.0 | 0.6 | 0.7
2 | O=C(/C=C/C=C/c1ccccc1)c1cccc(O)c1 [Compound 3, (2E,4E)-1-(3-hydroxyphenyl)-5-phenylpenta-2,4-dien-1-one] |  |  | 0.5 | 0.6
